Source: the supplement of paper PMC9931576
Numbering of substitutions follows the chain as printed. Human monoclonal antibodies against the spike receptor-binding domain (heavy:light variable regions). IC50 against pseudoviruses bearing the spike of naturally observed variants; lower = stronger; >10 µg/ml means not reached at the top dose. No active / inactive call. The stated detection limit is 0.0005 µg/ml; values near or below 0.001 µg/ml lie at the floor of the assay.

B1: COV2-2485 (protein)
chain 1: QVQLVQSGAEVKKPGSSVKVSCKASGGTFSSYSITWVRQAPGQGLEWMGRIIPVLGIANYAQKFQDRVTITADKSTSTAYMELSSLRSEDTAVYYCARVGVSGFKSGSNWYFDLWGRGTLVTVSS
chain 2: QSVLTQPPSVSGAPGQRVTLSCTGSNSNIGAGYDVHWYQQLPGTAPKLLIYGNSNRPSGVPDRFSGSKSGTSASLAITGLQAEDEADYYCQSYDSSLSDSVFGGGTKVTVL
B2: BD56-1480 (protein)
chain 1: EVQLVESGGGLVQPGGSLRLSCVVSGFTVSSNYMSWVRQAPGKGLEWISVIYSGGSTFYADSVKGRFTISRHNSKNTLYLQMNSLRVEDTAVYYCARDPYGRPLTWGQGTLVTVSS
chain 2: DIQMTQSPSSLSASAGDRVTITCRASQDIVKFLNWYQQKPGKAPKVLIYDASNLETGVPSRFSGSGSGTDFSLTISSLQPEDVATYYCQQYDNLPITFGQGTRLEIK
B3: BD56-1476 (protein)
chain 1: EVQLVESGGGLIQPGGSLRLSCVASGFIVSSNYMSWVRQAPGKGLEWVSLIYSGGSTFYADSVKGRFSISRDNSKNTLYLEMNSLRGEDTAVYYCARLLPMAGTLDFWGQGTLVTVSS
chain 2: DIQMTQSPSSLSASVGDRVTITCQASQDINKYLNWYQQKPGKAPKLLIYDASNLETGVPSRFSGSGSGTHFTFTISSLQPEDIATYYCQQYDSLLAVTFGGGTKVAIK
B4: BD56-1531 (protein)
chain 1: QVQLQESGPGLVKPSQTLSLTCTVSGGSISSSAFYWSWIRQSPGKGLEWIGFIFYSGSTYYNPSLRSRITISIDISKNQFSLNVNSVTAADTAVYYCARETRRGYSGYDLGGFDHWGQGALVTVSS
chain 2: QSALTQPASVSGSPGQSITISCTGTSSDVGGYNYVSWYQQHPGKAPKLIIDEVRNRPSGVSNRFSGSKSGNTASLTISGLQADDEADYYCSSYTTTSTRVFGGGTKLTVL
B5: BD56-1489 (protein)
chain 1: EVQLVESGGGLVQPGGSLRLSCAASGFTFRSYSMNWVRQAPGKGLEWVSYISSSSSTIYYADSVKGRFTISRDNAKNSLYLQMNSLRDEDTAVYYCARDPYYYDSRGYHYGPYYFDYWGQGTLVTVSS
chain 2: DIQMTQSPSSVSASVGDRVTITCRASQGISGWLAWYQQKPGKAPKLLIYAASSLQSGVPSRFSGSGSGTDFTLTISSLQPEDFATYYCQQANSFPLTFGQGTRLEIK
B6: BD56-1526 (protein)
chain 1: QVQLQESGPGLVKPSQTLSLTCTVSGGSIRNDEYYWSWIRQPPGKGLEWIGYIHYSGNTYYNPSLKSRVAISVDTSKNQFSLKLSSVTAADTAVYYCARVDVGGRLVSTFDYWGLGTLVTVSS
chain 2: NFMLTQPHSVSESPGMTVTISCTGSSGSIASNYVQWYQQRPGSAPTTVIYENNQRPSGVPDRFSGSIDSSSNSASLTISGLKTEDEADYYCQSYDSSNIAVFGGGTQLTVL
B7: BD56-1529 (protein)
chain 1: QVQLVQSGAEVKKPGASVKVSCKASGYTFINYYIHWVRQAPGQGLEWLAIINPDAGSTSYGQKFQGRVTVTGDTSTNTVYMELSSLRSEDTAVYYCARSAHGIPSARAWFDPWGQGTLVTVSS
chain 2: DIQMTQSPSTLSASVGDRVTITCRASQSIDSSLAWYHQKPGKAPEVLIYKASSLESGVPSRFSGSGSGTEFTLTISSLQPDDFATYFCQQYNSFPFTFGQGTKLEIK
B8: BD56-1485 (protein)
chain 1: QVQLVQSGAEVKKPGSSVKVSCKASGGTFSRYAINWVRQAPGQGLEWMGGIIPLFGTAHYAQNFQGRLTITADKYTSTSYMELSSLRSDDTAVYYCARGNTVQPSDYYYYGMDVWGQGTTVTVSS
chain 2: DIQMTQSPSSLSASVGDRVTITCQASQDISNSLNWYQQKPGKAPKLLIYDASNLETGVPSRFSGSGSGTDFTFTISSLQPEDIATYYCQQYDNLPLFGQGTKLEIK
B9: BD56-1486 (protein)
chain 1: QVQLVQSGAEVKKPGSSVKVSCKASGGTFSRYAISWVRQAPGQGLEWMGGIIPIFGTASYAQKFQGRVTITADKSTSTAYMELSSLKSQDTAVYYCARGNTPQPSDHYYHGMDVWGPGTTVTVSS
chain 2: B8 chain 2 with S30N, N31T, S32Y, D50H, N93I
B10: BD56-1479 (protein)
chain 1: QVHLQESGPGLVRPSETLSLTCSVSGGSLSHYYWSWIRQPPGKGLEWIGYMFYSGGTNYNPSLRSRVTISVDTSNNQFSLKVRSVTAADTAIYFCARDRGDSSGWPDALSVWGQGTVVTVSS
chain 2: DIQMTQSPSSLSASVGDRVTITCQASQDIRNYLNWYQQKPGKAPKLLIYDASNLETGVPSRFSGSGSGTDFTFTISSLQPEDIATYYCQQYDNIPWTFGQGSKVESK
B11: BD56-1493 (protein)
chain 1: EVQLVQSGAEVKKPGESLKISCKGSGYSFISYWIGWVRQMPGKGLEWMGIIYPGDSDTRYSPSFQGQVTISADKSISTAYLQWSSLKASDTAMYYCARQDGSRGWKGFDPWGQGTLVTVSS
chain 2: QSVLTQPPSASGTPGQRVTISCSGSSSNIGSNAVNWYQQLPGTAPKLLIYGNNQRPSGVPDRFSGSKSGTSASLAISGLQSEDGADYYCAAWDDSLNGWVFGGGTKLTVL
B12: BD56-1516 (protein)
chain 1: QVQLVQSGADVKKPGSSVKVSCKASGGTFSSYSISWVRQAPGQGPEWMGTIIPILGIPSNAQRFQGRVTITADKSTSTAYLELSSLRSDDTAVYYCARSFHYESSGLAADAFDIWGQGTMVTVSS
chain 2: QSVLTQPPSVSGAPGQRVTISCTGTSSNIGAGYDVHWYQQLPGTAPKFLIFGDKNRPSGVPDRFSGSKSGTSASLAITGLQAEDEAAYYCQSYDSSLIGSVFGGGTKLTVL

Biological target: SARS-CoV-2 Omicron BA.1 spike pseudovirus
Test: pseudovirus neutralization IC50; higher = weaker neutralization
Procedure: (§1)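 Single-round VSV luciferase pseudovirus mixed with antibody dilutions for 1 h and put on Huh-7 cells for about a day; IC50 from the dose curve.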

Binder	pseudovirus neutralization IC50 [µg/mL]
B1	0.19
B2	1.61
B3	0.011
B4	> 10
B5	> 10
B6	> 10
B7	> 10
B8	> 10
B9	> 10
B10	0.529
B11	> 10
B12	0.105

Biological target: SARS-CoV-2 Omicron BA.2 spike pseudovirus
Test: as above
Procedure: as §1

Binder	pseudovirus neutralization IC50 [µg/mL]
B1	0.0874
B2	1.34
B3	0.0131
B4	> 10
B5	> 10
B6	> 10
B7	> 10
B8	> 10
B9	> 10
B10	0.371
B11	> 10
B12	0.0828

Biological target: SARS-CoV-2 Omicron BA.2.75 spike pseudovirus
Test: as above
Procedure: as §1

Binder	pseudovirus neutralization IC50 [µg/mL]
B1	0.12
B2	> 10
B3	2.37
B4	> 10
B5	> 10
B6	> 10
B7	> 10
B8	> 10
B9	> 10
B10	0.287
B11	> 10
B12	0.0957

Biological target: SARS-CoV-2 Omicron BA.5 spike pseudovirus
Test: as above
Procedure: as §1

Binder	pseudovirus neutralization IC50 [µg/mL]
B1	> 10
B2	> 10
B3	0.081
B4	> 10
B5	> 10
B6	> 10
B7	> 10
B8	> 10
B9	> 10
B10	0.337
B11	> 10
B12	> 10

Biological target: SARS-CoV-2 Omicron BQ.1.1 spike pseudovirus
Test: as above
Procedure: as §1

Binder	pseudovirus neutralization IC50 [µg/mL]
B1	> 10
B2	> 10
B3	> 10
B4	> 10
B5	> 10
B6	> 10
B7	> 10
B8	> 10
B9	> 10
B10	> 10
B11	> 10
B12	> 10

Biological target: SARS-CoV-2 Omicron XBB spike pseudovirus
Test: as above
Procedure: as §1

Binder	pseudovirus neutralization IC50 [µg/mL]
B1	> 10
B2	> 10
B3	1.87
B4	> 10
B5	> 10
B6	> 10
B7	> 10
B8	> 10
B9	> 10
B10	1.62
B11	> 10
B12	> 10

Biological target: SARS-CoV-2 early D614G spike pseudovirus
Test: as above
Procedure: as §1

Binder	pseudovirus neutralization IC50 [µg/mL]
B1	0.246
B2	0.0254
B3	0.00504
B4	> 10
B5	> 10
B6	0.818
B7	> 10
B8	0.184
B9	1.16
B10	0.0128
B11	> 10
B12	0.0957
